Data reported in patent publication US20080312080A1 (priority 2006, published 2008).

The substances below were run on Aspergillus parasiticus NRRL 2999 (assay: Assay of inhibition activity of aflatoxin production). Settings: total aflatoxins B1, B2, G1, G2 by ELISA; PD liquid medium, 0 to 20 μg/mL, 3 days at 27° C., triplicate.
Assay type: cell-based

Question: With “(S)-3-aminooctanoyl-(S)-3-aminodecanoyl-glycine” as the substance, how does the “IC50 (50% inhibition concentration) of aflatoxin production” value (from here on “IC50 (50% inhibition concentration)”) read?
Answer: 4.0 µg/mL

Question: How did the “IC50 (50% inhibition concentration)” value turn out when “(S)-3-aminooctanoyl-(S)-3-aminooctanoyl-L-proline” was run?
Answer: 0.5 µg/mL

Question: With “(S)-3-aminooctanoyl-(S)-3-aminooctanoyl-glycine” as the substance, how does the “IC50 (50% inhibition concentration)” value read?
Answer: 2.5 µg/mL

Question: With “(S)-3-aminooctanoyl-(S)-3-aminooctanoyl-L-alanine” as the substance, how does the “IC50 (50% inhibition concentration)” value read?
Answer: 1.4 µg/mL

Question: With dioctatin B as the substance, how does the “IC50 (50% inhibition concentration)” value read?
Answer: 5.1 µg/mL

Question: With dioctatin A as the substance, how does the “IC50 (50% inhibition concentration)” value read?
Answer: 4.6 µg/mL

Question: “(S)-3-aminooctanoyl-(S)-3-aminooctanoyl-β-alanine” was tested. Which “IC50 (50% inhibition concentration)” value did it give?
Answer: 3.7 µg/mL

Question: How did the “IC50 (50% inhibition concentration)” value turn out when “(2R,3S)-3-amino-2-methyloctanoyl-(S)-3-aminooctanoyl-glycine” was run?
Answer: 6.6 µg/mL

Question: With “(S)-3-aminooctanoyl-(S)-3-aminooctanoyl-sarcosine” as the substance, how does the “IC50 (50% inhibition concentration)” value read?
Answer: 2.9 µg/mL
